Values joined by “and” are separate entries in the source; they are usually repeats but may differ in a detail not shown here. Equal entries are not always repeated.
Tested on: anthrax lethal toxin (LT; PA + LF)
Set-up: species or system Fischer 344 rats
Settings: rat, in vivo

Structure (SMILES): CCC(NCCCC[C@@H](Nc1cc(C)c(F)c(C)c1)C(=O)NO)c1ccc(F)cc1 (mixture of isomers) [LFI 17]
- surv (number of survivors per group): protect all of the animals and 3/3 and 0/3
